Measured values from article PMC12839305 (Biomolecules, 2025).

Biological target: RVFV glycoprotein Gn head domain (154–469 aa) (Rift Valley fever virus, UniProt P21401 154-469, biotin (biotinylation kit; for the BLI only))
Experiment: BLI

Row | Binder | Kd [nM]
1 | LRP1 CL IV-B Mutation B2 (Asp3556Ala/Asp3558Ala/Asp3560Ala) (domain or fragment) MTCGVDEFRCKDSGRCIPARWKCDGEDDCGDGSDEPKEECDERTCEPYQFRCKNNRCVPGRWQCAYANACGDNSDEESCTPRPCSESEFSCANGRCIAGRWKCDGDHDCADGSDEKDCTPRCDMDQFQCKSGHCIPLRWRCDADADCMDGSDEEACGT | 48
2 | LRP1 CL IV-B Mutation B3 (Asp3595Ala/Asp3597Ala/Asp3599Ala) (domain or fragment) MTCGVDEFRCKDSGRCIPARWKCDGEDDCGDGSDEPKEECDERTCEPYQFRCKNNRCVPGRWQCDYDNDCGDNSDEESCTPRPCSESEFSCANGRCIAGRWKCAGAHACADGSDEKDCTPRCDMDQFQCKSGHCIPLRWRCDADADCMDGSDEEACGT | 29
